Pooled drug test results. Numbers come from NIAID ChemDB, via PubChem.

Common to all: whole-cell or culture tests; organism: HIV-1; read-out: EC50

a–b is a range or a potency band. Lines come from different laboratories, so protocols vary. Blank or dashed fields: not listed here. ECn is the concentration giving n% inhibition of infection, replication or growth.

compound | strain | changes | cell line | read by | value
Cc1ncc(-c2ccc(OC3CCC3)cn2)c(N2CCC(C)(C)CC2)c1[C@H](OC(C)(C)C)C(=O)O | NL4-3 |  | MT-2 | luminescence | 0.0032 µM
CCCC1CN(C(=O)c2ccccc2)CCN1C(=O)C(=O)c1c[nH]c2c(C(=O)OC)cccc12 |  |  | HeLa + HELA CD4+/CCR5 | luciferase | <10 µM
Cc1cc(C#N)cc(C(=O)c2cc(Cl)ccc2OCC(=O)Nc2ccc(S(N)(=O)=O)nc2C)c1 | HXB2 | RT-Y181C | HeLa + HELA CD4+ | β-galactosidase | <0.01 µM
CC(C)C1=C2[C@H]3CC[C@@H]4[C@@]5(C)CC[C@H](OC(=O)[C@H]6C[C@@H](C(=O)O)C6(C)C)C(C)(C)[C@@H]5CC[C@@]4(C)[C@]3(C)CC[C@@]2([C@@H](O)CNC(=O)C(C)(C)NC(=O)C2CCNCC2)CC1=O | 92HT599 |  | MT-2 | p24 / ELISA | <1 µM
Cc1cc(S(N)(=O)=O)ccc1NC(=O)COc1ccc(Cl)cc1C(=O)c1cc(F)cc(C(F)(F)F)c1 | HXB2 | RT-E138K | HeLa + HELA CD4+ | β-galactosidase | <0.01 µM
CC(C)C1=C2[C@H]3CC[C@@H]4[C@@]5(C)CC[C@H](OC(=O)[C@H]6C[C@@H](C(=O)O)C6(C)C)C(C)(C)[C@@H]5CC[C@@]4(C)[C@]3(C)CC[C@@]2(CCN(CCN(C)C)Cc2nccs2)CC1=O | 92HT599 |  | MT-2 | p24 / ELISA | <1 µM
C[C@@H]1CCO[C@H]2Cn3cc(C(=O)NCc4ccc(F)cc4F)c(=O)c(O)c3C(=O)N12 | NL4-3 | H51Y/R263K | CBMC | RT activity | 0.0023 µM
CSc1ccc(C(=O)N2CCN(C(=O)C(=O)c3c[nH]c4cccc(Cl)c34)CC2)c(S)c1 |  |  | HeLa + HELA CD4+/CCR5 | luciferase | <10 µM
Cc1ncc(-c2ccc(OC3Cc4ccccc4C3)cn2)c(N2CCC(C)(C)CC2)c1[C@H](OC(C)(C)C)C(=O)O | NL4-3 |  | MT-2 | luminescence | 0.0024 µM
CC(C)=CCOc1cc(NC(=S)c2ccoc2C)ccc1Cl | NL4-3 | RT-V179D | CEM + CEM-SS | p24 | 0.008 µM
CN1c2ccccc2C2C1C=C(C#N)C(=O)N2c1ccc([N+](=O)[O-])cc1 | 6463-13 |  | HeLa | GFP / fluorescence | 0.35 µM
COc1ccc(F)c2c(C(=O)C(=O)N3CCN(C(=O)c4ccccc4)CC3)c[nH]c12 |  |  | HeLa + HELA CD4+/CCR5 | luciferase | <10 µM
COCc1nc(Nc2ccc(C#N)cc2)nc(Nc2c(C)cc(/C=C/C#N)cc2C)c1C(=O)NCc1ccncc1 | L1001+K103N |  | MT4 CMV-EGFP |  | 0.0372 µM
COc1ccccc1C(=O)Nc1ccc(Cl)c(C(=O)OC(C)C)c1 | IIIB |  | CEM + CEM-SS | cytopathic effect / XTT | 1.3 µM
CC(C)C1=C2[C@H]3CC[C@@H]4[C@@]5(C)CC[C@H](OC(=O)[C@H]6C[C@@H](C(=O)O)C6(C)C)C(C)(C)[C@@H]5CC[C@@]4(C)[C@]3(C)CC[C@@]2(CC(=O)NCC2(NC(=O)c3ccc(Cl)cc3)CNC2)CC1=O | 92HT599 |  | MT-2 | p24 / ELISA | <1 µM
Cc1cc2[nH]cnc2cc1NC(=O)COc1ccc(Cl)cc1C(=O)c1cc(F)cc(C(F)(F)F)c1 | HXB2 | RT-V106A | HeLa + HELA CD4+ | β-galactosidase | 0.011–0.1 µM
COCc1nc(Nc2ccc(C#N)cc2)nc(Nc2c(C)cc(/C=C/C#N)cc2C)c1C(=O)N1CCCC(C(N)=O)C1 | L1001+K103N |  | MT4 CMV-EGFP |  | 0.603 µM
Cc1cc(Cl)ccc1OCCOc1ncc(-c2cnc(C)c([C@H](OC(C)(C)C)C(=O)O)c2N2CCC(C)(C)CC2)cc1F | NL4-3 |  | MT-2 | luminescence | 0.003 µM
COCc1nc(Nc2ccc(C#N)cc2)nc(Nc2c(C)cc(/C=C/C#N)cc2C)c1C(=O)N1CCN(C)CC1 | K103N+Y101C |  | MT4 CMV-EGFP |  | 2.82 µM
CC(C)C1=C2[C@H]3CC[C@@H]4[C@@]5(C)CC[C@H](OC(=O)[C@H]6C[C@@H](C(=O)O)C6(C)C)C(C)(C)[C@@H]5CC[C@@]4(C)[C@]3(C)CC[C@@]2(CC(=O)NCC2CCNCC2)CC1=O | 92HT599 |  | MT-2 | p24 / ELISA | <1 µM
CCCCCC1CN(C(=O)C(=O)c2c[nH]c3c(C(=O)OC)cccc23)CCN1C(=O)c1ccccc1 |  |  | HeLa + HELA CD4+/CCR5 | luciferase | <10 µM
COCc1nc(Nc2ccc(C#N)cc2)nc(Nc2c(C)cc(/C=C/C#N)cc2C)c1C(=O)N(C)OC | IIIB |  | MT4 CMV-EGFP |  | 0.00191 µM
O=C(C(=O)N1CCN(C(=O)c2ncc[nH]2)CC1)c1c[nH]c2cccc(F)c12 |  |  | HeLa + HELA CD4+/CCR5 | luciferase | <10 µM
Cc1cc(S(N)(=O)=O)ccc1NC(=O)COc1ccc(Cl)cc1C(=O)c1cc(F)cc(C(F)(F)F)c1 | IIIB | RT-E138K | HELA MAGI | luciferase | 0.003 µM
CC(C)C1=C2[C@H]3CC[C@@H]4[C@@]5(C)CC[C@H](OC(=O)[C@H]6C[C@@H](C(=O)O)C6(C)C)C(C)(C)[C@@H]5CC[C@@]4(C)[C@]3(C)CC[C@@]2(CC(=O)NC[C@@H](C)NC(=O)c2ccc(Cl)cc2)CC1=O | 92HT599 |  | MT-2 | p24 / ELISA | <1 µM
C=CCNC(=O)c1c(COC)nc(Nc2ccc(C#N)cc2)nc1Nc1c(C)cc(/C=C/C#N)cc1C | K103N + Y181C |  | MT4 CMV-EGFP |  | 0.0195 µM
CC(C)C1=C2[C@H]3CC[C@@H]4[C@@]5(C)CC[C@H](OC(=O)[C@H]6C[C@@H](C(=O)O)C6(C)C)C(C)(C)[C@@H]5CC[C@@]4(C)[C@]3(C)CC[C@@]2([C@@H](O)CNC[C@@H]2CCCCN2)CC1=O | 92HT599 |  | MT-2 | p24 / ELISA | <1 µM
Cc1cc(C#N)cc(C(=O)c2cc(Cl)ccc2OCC(=O)Nc2ccc(OCCCN3CC=CC3)cc2C)c1 | HXB2 | RT-P225H | HeLa + HELA CD4+ | β-galactosidase | <0.01 µM
O=C(C(=O)N1CCN(C(=O)c2ccccc2SCc2ccccc2)CC1)c1c[nH]c2cccc(Cl)c12 |  |  | HeLa + HELA CD4+/CCR5 | luciferase | <10 µM
Cc1cc(CNC(=O)C[C@@]23CC[C@]4(C)[C@H](CC[C@@H]5[C@@]6(C)CC[C@H](OC(=O)[C@H]7C[C@@H](C(=O)O)C7(C)C)C(C)(C)[C@@H]6CC[C@]54C)C2=C(C(C)C)C(=O)C3)n[nH]1 | 92HT599 |  | MT-2 | p24 / ELISA | <1 µM
Cc1cc(F)ccc1OCCNc1ccc(-c2cnc(C)c([C@H](OC(C)(C)C)C(=O)O)c2N2CCC(C)(C)CC2)cn1 | NL4-3 |  | MT-2 | luminescence | 0.0025 µM
COc1cc(-c2ccc(N=Nc3ccc4c(S(=O)(=O)O)cc(S(=O)(=O)O)c(N)c4c3O)c(OC)c2)ccc1N=Nc1ccc2c(S(=O)(=O)O)cc(S(=O)(=O)O)c(N)c2c1O | TP1 |  | CEM + CEM-SS | RT activity | 0.6 µM
Cc1cc(OCCCS(N)(=O)=O)ccc1NC(=O)COc1ccc(Cl)cc1C(=O)c1cc(F)cc(C(F)(F)F)c1 | HXB2 | RT-V106A | HeLa + HELA CD4+ | β-galactosidase | 0.011–0.1 µM
COCCNC(=O)c1c(COC)nc(Nc2ccc(C#N)cc2)nc1Nc1c(C)cc(/C=C(\C)C#N)cc1C | K103N + Y181C |  | MT4 CMV-EGFP |  | 0.0195 µM
O=C(C(=O)N1CCN(C(=O)c2cscn2)CC1)c1c[nH]c2cccc(Cl)c12 |  |  | HeLa + HELA CD4+/CCR5 | luciferase | <10 µM
CCc1cc(C#N)cc(C(=O)c2cc(Cl)ccc2OCC(=O)Nc2ccc(S(N)(=O)=O)cc2C)c1 | HXB2 (RT-K103N Y181C) Recombinant | RT-K103N Y181C | HeLa + HELA CD4+ | β-galactosidase | <0.01 µM
Cc1ncc(-c2ccc(OCCCC(F)(F)F)cn2)c(N2CCC(C)(C)CC2)c1[C@H](OC(C)(C)C)C(=O)O | NL4-3 |  | MT-2 | luminescence | 0.002 µM
CCCc1cc(=O)oc2c3c(c4c(c12)OC(C)(C)CC4)O[C@@H](C)[C@H](C)[C@@H]3O | CLADE D |  | PBMC | RT activity | 0.2 µM
CC(C)C1=C2[C@H]3CC[C@@H]4[C@@]5(C)CC[C@H](OC(=O)[C@H]6C[C@@H](C(=O)O)C6(C)C)C(C)(C)[C@@H]5CC[C@@]4(C)[C@]3(C)CC[C@@]2(CC(=O)NC2(c3ccc(Cl)cc3)CC2)CC1=O | 92HT599 |  | MT-2 | p24 / ELISA | <1 µM
CC(C)=CCOc1cc(NC(=S)c2ccoc2C)ccc1Cl | NL4-3 (RT L74V) | RT-L74V | CEM + CEM-SS | cytopathic effect / XTT | 0.006 µM
C[C@H]1CN(C(=O)c2ccccc2)CCN1C(=O)C(=O)c1c[nH]c2c(F)cccc12 |  |  | HeLa + HELA CD4+/CCR5 | luciferase | <10 µM
CC(C)C1=C2[C@H]3CC[C@@H]4[C@@]5(C)CC[C@H](OC(=O)[C@H]6C[C@@H](C(=O)O)C6(C)C)C(C)(C)[C@@H]5CC[C@@]4(C)[C@]3(C)CC[C@@]2([C@@H](O)CNC[C@H](NC(=O)c2ccc(Cl)cc2)C(C)O)CC1=O | 92HT599 |  | MT-2 | p24 / ELISA | <1 µM
Cc1cc(S(N)(=O)=O)ccc1NC(=O)COc1ccc(Cl)cc1C(=O)c1cc(F)cc(C#N)c1 | HXB2 | RT-P225H | HeLa + HELA CD4+ | β-galactosidase | <0.01 µM
COCc1nc(Nc2ccc(C#N)cc2)nc(Nc2c(C)cc(/C=C/C#N)cc2C)c1C(=O)NCc1cccs1 | IIIB |  | MT4 CMV-EGFP |  | 0.00589 µM
CC(C)=CCOc1cc(NC(=S)c2ccsc2C)ccc1Cl | UC781-R (RT-Y181C) | RT-Y181C | CEM + CEM-SS | cytopathic effect / XTT | 0.3 µM
Cc1cccc(Cl)c1OCCOc1ccc(-c2cnc(C)c([C@H](OC(C)(C)C)C(=O)O)c2N2CCC(C)(C)CC2)nc1 | NL4-3 |  | MT-2 | luminescence | 0.0011 µM
CC1CC(C)CN(S(=O)(=O)c2ccccc2[N+](=O)[O-])C1 | N119 |  | HeLa | GFP / fluorescence | 41.1 µM
CCC(=O)c1ccc(F)c([C@@H]2C[C@@H]2NC(=O)Nc2ccc(C#N)cn2)c1O | LAI | NNRTI-resistant (RT Y181C/G190A) | TZM-bl | β-galactosidase / luminescence | 0.00126 µM
Cc1ccc(C)n1-c1ccc(C(=O)O)c(O)c1 | 93IN101 R5 CLADE C |  | PBMC/5.25M7 | luciferase / cell fusion | 13.86 µM
CCCOCCOc1ccc(-c2cnc(C)c([C@H](OC(C)(C)C)C(=O)O)c2N2CCC(C)(C)CC2)nc1 | NL4-3 |  | MT-2 | luminescence | 0.0019 µM